Pooled drug test results. Numbers come from NIAID ChemDB, via PubChem.

Shared fields: growth or infection tests; species: Candida krusei

MIC50, MIC90 and the like: level of inhibition, or share of isolates inhibited.

compound,strain or isolate,measure,conditions,read by,value
CCCCCCCCCCCCCCn1cc[n+](COCCOC[n+]2ccn(CCCCCCCCCCCCCC)c2)c1,ATCC 6258,MIC100,,agar diffusion,2 µM
CC(C)c1ccc(S(=O)(=O)Nc2ccc(CN(C)CC(O)(Cn3cncn3)c3ccc(F)cc3F)cc2)cc1,506,MIC,,resazurin,2 µg/mL
COC(=O)c1c(N)oc2c(C)c(C)c(O)c(Sc3ccccc3)c12,KCCM 11655,MIC,,broth dilution,3.2 µg/mL
Clc1ccc(C(c2ccccc2)N2CCN(CCn3ccnc3)CC2)cc1,,MIC90,,agar,>256 µg/mL
CCCCCCCn1cc[n+](COCCOC[n+]2ccn(CCCCCCC)c2)c1,ATCC 6258,MIC100,,agar diffusion,20 µM
CC(NC(=O)C(N)Cc1ccccc1)C(=O)NC(Cc1ccc(O)cc1)C(=O)O,ATCC 6258,MIC,,broth dilution,348 µg/mL
Nc1[nH]c(=O)ncc1F,KCCM 11655,MIC,,broth dilution,3.2 µg/mL
CCC(C)CC(C)CCCCCCCCC(=O)N[C@H]1C[C@@H](O)[C@H](NCCN)NC(=O)[C@@H]2[C@@H](O)CCN2C(=O)[C@H]([C@H](O)CCN)NC(=O)[C@H]([C@H](O)[C@@H](O)c2ccc(O)cc2)NC(=O)[C@@H]2C[C@@H](O)CN2C(=O)[C@H]([C@@H](C)O)NC1=O,DPL45,MIC50,,broth dilution,8 µg/mL
O=C(c1ccccc1)C(c1ccccc1)n1ccnc1,,MIC90,,agar,>256 µg/mL
CCOc1ccc2nc3cc(N=C4NC(=O)/C(=C\C=C\c5ccc([N+](=O)[O-])o5)S4)ccc3c(N)c2c1,,MFC,,broth dilution,>1000 µg/mL
CN(Cc1ccc(NS(=O)(=O)c2ccc([N+](=O)[O-])cc2)cc1)CC(O)(Cn1cncn1)c1ccc(F)cc1F,8,MIC,,resazurin,18.3 µg/mL
CCCCCCCCn1cc[n+](COCCCCCOC[n+]2ccn(CCCCCCCC)c2)c1,ATCC 6258,MIC100,,agar diffusion,142 µM
c1ccc(C(c2ccccc2)n2cnc3ccccc32)cc1,,MFC,,broth dilution,>256 µg/mL
CC(C)C[C@H](N)C(=O)O,D 206 B,MFC100,,broth dilution,>72000 µg/mL
Cc1nc2c(s1)C(=O)C(Nc1ccccc1)=C(Cl)C2=O,KCCM 11655,MIC,,broth dilution,6.3 µg/mL
CC(C)(O)c1cn(-c2ccc(Br)cc2)nn1,URM 1059,MIC,,broth dilution,512 µg/mL
Clc1ccc(C(c2ccccc2)N2CCN(CCn3cncn3)CC2)cc1,,MFC,,broth dilution,>256 µg/mL
CC1C(=O)N(c2ccccc2)C(=O)C1C,CCC 117-2000,MIC,,broth dilution / turbidity,62.5 µg/mL
CCCCn1cc[n+](COCCCCCCOC[n+]2ccn(CCCC)c2)c1,6258,MIC100,,agar diffusion,669 µM
CC(C)CC(=O)C(=O)O,ATCC 6258,MFC100,,broth dilution,>72000 µg/mL
CCCCCCCCCCCCCCCC(=O)NC(CCCCN)C(=O)NC(CCCCN)C(N)=O,6258,MIC,,broth dilution,2 µg/mL
CC(C)(O)c1cn(-c2ccc(Cl)cc2)nn1,URM 4802,MIC,,broth dilution,256 µg/mL
OC(Cn1cncn1)(Cn1cncn1)c1ccc(F)cc1F,KCCM 11655,MIC,,broth dilution,3.2 µg/mL
COC(=O)c1c(N)oc2c1cc(O)c1sc(C)nc12,KCCM 11655,MIC,,broth dilution,25 µg/mL
CCCCn1cc[n+](COCCCCCOC[n+]2ccn(CCCC)c2)c1,ATCC 6258,MIC100,,agar diffusion,779 µM
c1ccc(C(c2ccccc2)n2ccnc2)cc1,,MFC,,broth dilution,2 µg/mL
Cc1ccc(N2C(=O)C[C@@H](C)C2=O)cc1,CCC 117-2000,MIC,,broth dilution / turbidity,62.5 µg/mL
CC(C)NS(=O)(=O)c1ccc(CN(C)CC(O)(Cn2cncn2)c2ccc(F)cc2F)cc1,506,MIC,,resazurin,5.7 µg/mL
Ic1ccc(-c2csc(N/N=C\c3cccc4ccccc34)n2)cc1,Clinical isolates,MIC,18 h,,2 µg/mL
O=C(c1ccccc1)C(c1ccccc1)n1nnc2ccccc21,,MIC90,,agar,>256 µg/mL
CCn1cc[n+](COCCCCCCOC[n+]2ccn(CC)c2)c1,ATCC 6258,MIC100,,agar diffusion,105 µM
CCCc1ccc(NS(=O)(=O)c2ccc(CN(C)CC(O)(Cn3cncn3)c3ccc(F)cc3F)cc2)cc1,8,MIC,,resazurin,1.8 µg/mL
CCCCCn1cc[n+](COCCCCCCOC[n+]2ccn(CCCCC)c2)c1,ATCC 6258,MIC100,,agar diffusion,631 µM
Cc1nc2c(s1)C(=O)C(Nc1ccc(I)cc1)=C(Cl)C2=O,KCCM 11655,MIC,,broth dilution,12.5 µg/mL
C=CCc1ccc(OC)c(OC)c1,337,MIC90,,turbidity,345 µg/mL
COc1ccc(C(c2ccc(OC)cc2)n2cncn2)cc1,,MFC,,broth dilution,>256 µg/mL
C[C@@H]1CC(=O)N(CCc2ccccc2)C1=O,CCC 117-2000,MIC,,broth dilution / turbidity,125 µg/mL
CCCCCCCCCCCn1cc[n+](COCCOC[n+]2ccn(CCCCCCCCCCC)c2)c1,ATCC 6258,MIC100,,agar diffusion,2 µM
CC1CC(=O)N(CCc2ccccc2)C1=O,CCC 117-2000,MIC,,broth dilution / turbidity,125 µg/mL
COC(=O)c1c(N)oc2cc(Cl)c(O)cc12,KCCM 11655,MIC,,broth dilution,3.2 µg/mL
CC(C)C(NC(=O)C(N)Cc1ccccc1)C(=O)NC(Cc1ccc(O)cc1)C(=O)O,ATCC 6258,MIC,,broth dilution,350 µg/mL
CC1C(=O)N(CCCc2ccccc2)C(=O)C1C,CCC 117-2000,MIC,,broth dilution / turbidity,125 µg/mL

3 of the rows above, restated:

compound	strain or isolate	measure	conditions	read by	value
OC(Cn1cncn1)(Cn1cncn1)c1ccc(F)cc1F	KCCM 11655	MIC		broth dilution	3.2 µg/mL
CN(Cc1ccc(NS(=O)(=O)c2ccc([N+](=O)[O-])cc2)cc1)CC(O)(Cn1cncn1)c1ccc(F)cc1F	8	MIC		resazurin	18.3 µg/mL
CCCc1ccc(NS(=O)(=O)c2ccc(CN(C)CC(O)(Cn3cncn3)c3ccc(F)cc3F)cc2)cc1	8	MIC		resazurin	1.8 µg/mL

Conditions beyond the fields shown may differ between rows. Blank or dashed fields: not listed here.